A mixed list of measured activities; the numbers were collected in NIAID ChemDB.

All rows: whole-cell or culture tests; agent: Reovirus; cell line: VERO; read by: cytopathic effect; endpoint: EC50

Neighbouring rows are from separate reports. ECn: concentration that inhibits the pathogen or its effect by n%.

{"structure": "Nc1nccc2c1ncn2[C@@H]1O[C@H](CO)[C@@H](O)[C@H]1O", "strain or isolate": "TYPE 1", "value": "10 µg/mL"}
{"structure": "Nc1nccc2c1ncn2[C@@H]1O[C@H](CO)[C@@H](O)[C@H]1O", "strain or isolate": "TYPE 1", "value": "10 µg/mL"}
{"structure": "Nc1ncnc2c1ncn2C[C@H](O)CO", "strain or isolate": "TYPE 1", "value": "7 µg/mL"}
{"structure": "NC(=O)c1csc([C@@H]2O[C@H](CO)[C@@H](O)[C@H]2O)n1", "strain or isolate": "TYPE 3/ABNEY", "value": "9 µg/mL"}
{"structure": "Nc1nc(Cl)c2ncn(C[C@H]3CC[C@@H](CO)C3)c2n1", "strain or isolate": "TYPE 1", "value": ">40 µg/mL"}
{"structure": "Nc1nccc2c1ncn2[C@@H]1C[C@H](CO)[C@@H](O)[C@H]1O", "strain or isolate": "TYPE 1", "value": "2 µg/mL"}
{"structure": "Nc1nccc2c1ncn2[C@@H]1C[C@H](CO)[C@@H](O)[C@H]1O", "strain or isolate": "TYPE 1", "value": "1 µg/mL"}
{"structure": "Nc1nc(Cl)c2nnn(C[C@H]3CC[C@@H](CO)C3)c2n1", "strain or isolate": "TYPE 1", "value": ">200 µg/mL"}
{"structure": "Nc1nccc2c1ncn2[C@@H]1C=C[C@@H](O)[C@H]1O", "strain or isolate": "TYPE 1", "value": "2 µg/mL"}
{"structure": "C[C@H]1C[C@@H](n2cnc3c(N)ncnc32)[C@H](O)[C@@H]1O", "strain or isolate": "TYPE 1", "value": "4 µg/mL"}
{"structure": "O=c1[nH]c(=O)n([C@H]2C[C@H](O)[C@@H](CO)O2)cc1/C=C/Br", "strain or isolate": "TYPE 1", "value": ">400 µg/mL"}
{"structure": "COC(C)c1cn([C@@H]2O[C@H](CO)[C@@H](O)[C@H]2O)c2ncnc(N)c12", "strain or isolate": "TYPE 1", "value": "1 µg/mL"}
{"structure": "Nc1nc2c(nnn2C[C@H]2CC[C@@H](CO)C2)c(=O)[nH]1", "strain or isolate": "TYPE 1", "value": ">200 µg/mL"}
{"structure": "NC(=O)c1ccnc([C@@H]2O[C@H](CO)[C@@H](O)[C@H]2O)c1", "strain or isolate": "TYPE 1", "value": ">400 µg/mL"}
{"structure": "Nc1ncnc2c1c(Br)cn2[C@@H]1O[C@H](CO)[C@@H](O)[C@H]1O", "strain or isolate": "TYPE 1", "value": "0.07 µg/mL"}
{"structure": "Nc1nc2c(ncn2C[C@H]2CC[C@@H](CO)C2)c(=O)[nH]1", "strain or isolate": "TYPE 1", "value": ">200 µg/mL"}

Again, the opening 2 rows:

Nc1nccc2c1ncn2[C@@H]1O[C@H](CO)[C@@H](O)[C@H]1O ; strain or isolate: TYPE 1 ; value: 10 µg/mL
Nc1nccc2c1ncn2[C@@H]1O[C@H](CO)[C@@H](O)[C@H]1O ; strain or isolate: TYPE 1 ; value: 10 µg/mL